Data source: PubChem BioAssay AID624099 (ICCB-Longwood, 2012)
Purpose: 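Host factors E2 relies on to silence an HPV18 LCR reporter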 (primary screen). System: human C33A cervical carcinoma cells (HPV-negative) stably expressing BPV1 E2 and an HPV18 LCR luciferase reporter. Reagent: siRNA pool against human genes, 40 nM. Duration: 72 h. Detection: 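Per-well luciferase luminescence, z-scored on each plate against the plate mean and SD with control wells left out, then averaged across three replicate plates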. Scale: mean z-score and z-score: higher = stronger reporter signal, weaker E2 silencing. Call rule: 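Mean z ≥ 2 together with z ≥ 2 in two or more of the three replicates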.
Shown is one part, drawn at random, of about 21,000 deposited reagents. 497 of them (2.4%) count as active. 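Higher z means weaker E2 silencing; only reporter increases were scored, and knock-downs that hurt cell survival may mask genuine repressor factors.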 The numbers tell different reagents against one gene apart.

The opening 2 records as a preview:
gene symbol | reagent | mean z-score | z-score, replicate A | z-score, replicate B | z-score, replicate C | activity call
MAP1LC3BP1 | 1 | 1.62 | 1.52 | 1.53 | 1.82 | inactive
MRPL45 (mitochondrial ribosomal protein L45) | 1 | -0.75 | -0.58 | -0.82 | -0.85 | inactive

The listing, repeating the preview:
gene symbol | reagent | mean z-score | z-score, replicate A | z-score, replicate B | z-score, replicate C | activity call
MAP1LC3BP1 | 1 | 1.62 | 1.52 | 1.53 | 1.82 | inactive
MRPL45 (mitochondrial ribosomal protein L45) | 1 | -0.75 | -0.58 | -0.82 | -0.85 | inactive
DCDC1 (doublecortin domain containing 1) | 1 | 0.98 | 1.13 | 0.82 | 0.98 | inactive
DCDC1 (doublecortin domain containing 1) | 2 | 0.53 | 0.77 | 0.66 | 0.18 | inactive
ZC2HC1B (zinc finger C2HC-type containing 1B) | 1 | 0.4 | 0.54 | 0.25 | 0.42 | inactive
NDUFC1 (NADH:ubiquinone oxidoreductase subunit C1) | 1 | -0.58 | -0.39 | -0.7 | -0.66 | inactive
ARL4A (ARF like GTPase 4A) | 1 | 1.61 | 1.28 | 2.02 | 1.52 | inactive
CABS1 (calcium binding protein, spermatid associated 1) | 1 | 1.17 | 1.6 | 0.75 | 1.17 | inactive
ARHGEF38 (Rho guanine nucleotide exchange factor 38) | 1 | -0.82 | -1 | -0.67 | -0.8 | inactive
ARHGEF38 (Rho guanine nucleotide exchange factor 38) | 2 | -1.26 | -0.66 | -1.78 | -1.33 | inactive
C11orf87 (chromosome 11 open reading frame 87) | 1 | 0.76 | 0.58 | 0.93 | 0.77 | inactive
FITM2 (fat storage inducing transmembrane protein 2) | 1 | -1.81 | -1.95 | -1.62 | -1.86 | inactive
ZNF829 (zinc finger protein 829) | 1 | 0.94 | 0.48 | 1.18 | 1.15 | inactive
WDR55 (WD repeat domain 55) | 1 | -1.23 | -1.19 | -1.36 | -1.14 | inactive
TMEM65 (transmembrane protein 65) | 1 | 1.49 | 1.15 | 1.6 | 1.72 | inactive
RAB27A (RAB27A, member RAS oncogene family) | 1 | 0.57 | 0.75 | 0.44 | 0.52 | inactive
SLAMF8 (SLAM family member 8) | 1 | -0.11 | -0.02 | -0.31 | 0 | inactive
ODAPH (odontogenesis associated phosphoprotein) | 1 | -0.29 | -0.48 | -0.22 | -0.17 | inactive
THAP5P1 (THAP domain containing 5 pseudogene 1) | 1 | -0.43 | -0.6 | -0.04 | -0.65 | inactive
REEP2 (receptor accessory protein 2) | 1 | -0.59 | -0.27 | -0.91 | -0.58 | inactive
TMCC3 (transmembrane and coiled-coil domain family 3) | 1 | 1.81 | 1.32 | 2.09 | 2.01 | inactive
NOXA1 (NADPH oxidase activator 1) | 1 | 0.2 | 0.13 | 0.45 | 0.03 | inactive
ETV7 (ETS variant transcription factor 7) | 1 | 0.51 | 0.89 | 0.68 | -0.04 | inactive
